System: SARS-CoV-2
Conditions: Homo sapiens; Caco-2; 10 uM

In the case of CN(C)CCS, the inhibition is reported as -7.17%.

— ChEMBL document CHEMBL4303101, “Identification of inhibitors of SARS-CoV-2 in-vitro cellular toxicity in human (Caco-2) cells using a large scale drug repurposing collection” (2020)
